We go through one sequence from paper PMC5895000.

Construct, isoform or probe ends are uncertain for at least one entry.

This data set relates to TRP120-1TR (Ehrlichia chaffeensis). Put plainly: NMR (1H-15N HSQC titration). The note with it: pH 5.5, 10 mM phosphate, 100 mM NaCl, 68 uM protein, 10-fold DNA, Discussion suggests micromolar range; 20 mM Tris pH 7.0 or 10 mM sodium phosphate pH 5.5, 100 mM NaCl, 1 mM DSS, 1 mM sodium azide, 10% D2O, 25 C; recombinant protein; protein details: GST removed by thrombin, 15N-labeled.

“GCGATTCTCCTGCCTCAGCCTCCCTAG (double strand) [GC-rich DNA probe]”: the binding result was “binds”.
